Anti-infective test results gathered from many reports (values: NIAID ChemDB through PubChem).

All rows: whole-cell or culture tests; agent: HIV-1; read by: RT activity; read-out: EC50

Rows are shuffled and stem from different studies. An empty or dashed field is not shown. ECn is the concentration giving n% inhibition of infection, replication or growth. Two numbers with a dash give a range or band.

smiles	conditions	strain or isolate	cells	value
CC(C)C1=C2C3CCC4[C@@]5(C)CC[C@H](OC(=O)CC(C)(C)C(=O)O)C(C)(C)C5CC[C@@]4(C)[C@]3(C)CC[C@@]2(NC(=O)OCC2(N)CC2)CC1=O	30% human serum	IIIB	MT-2	<0.199 µM
CN(C[C@@H](CCN1CCC2(CC1)CC(=O)c1ccccc12)c1cccc(Cl)c1)S(=O)(=O)c1ccccc1		YU2	PBMC	<1.5 µM
CN1CCN(CCSc2nccc(-c3ccc(-c4cccs4)s3)n2)CC1		LAV-1	PBMC	12.9 µM
CC(C)C1=C2[C@H]3CC[C@@H]4[C@@]5(C)CC[C@H](OC(=O)CC(C)(C)C(=O)O)C(C)(C)[C@@H]5CC[C@@]4(C)[C@]3(C)CC[C@@]2(C(=O)N2CCNCC2)CC1=O	30% human serum	IIIB	MT-2	<0.199 µM
CC(C)C1=C2C3CCC4[C@@]5(C)CC[C@H](OC(=O)CC(C)(C)C(=O)O)C(C)(C)C5CC[C@@]4(C)[C@]3(C)CC[C@@]2(NC(=O)OCC2CCN(C)CC2)CC1=O	30% human serum	IIIB	MT-2	<0.199 µM
Cc1cnc(SCCN(C)C)nc1-c1ccc(-c2nc(SCCN(C)C)ncc2C)s1		LAV-1	PBMC	2.1 µM
CCN(CC)C(=O)OCC1CNCCN1C(=O)c1cc(OC)c(OC)c(OC)c1		BaL	MDM	>100 µM
CC(=O)OC[C@H]1O[C@@H]2Oc3[nH]c(=O)[nH]c(=O)c3S[C@@H]2[C@@H](OC(C)=O)[C@H]1OC(C)=O		LAI	PBMC	>100 µM
CCCCCCCCCCCCCCNC(=O)[C@H](CS[C@@H]1O[C@H](CO)[C@H](O)[C@H](O)[C@H]1N)NC(=O)CCCCCCCCCCC		LAI	CEM + CEM-SS	>22 µM
CC(C)C1=C2C3CCC4[C@@]5(C)CC[C@H](OC(=O)CC(C)(C)C(=O)O)C(C)(C)C5CC[C@@]4(C)[C@]3(C)CC[C@@]2(NC(=O)c2nccn2C)CC1=O	30% human serum	IIIB	MT-2	<0.199 µM
Nc1ncnc2c1ncn2COCCOP(=O)(O)O[C@@H]1C[C@@H](COP(=O)(O)O[C@@H]2C[C@@H](COP(=O)(O)O[C@@H]3C[C@@H](CO)O[C@H]3n3cnc4c(NCc5ccccc5)ncnc43)O[C@H]2n2cnc3c(N)ncnc32)O[C@H]1n1cnc2c(N)ncnc21			SupT1 + Sup-T1	<100 µM
O=c1cc(CCl)nc2c3ncn([C@@H]4O[C@H](COP(=O)(O)O)[C@@H](O)[C@H]4O)c3ncn12		LAV-1	MT-2	>200 µM
O=C(C(=O)N1CCN(C(=O)c2ccccc2)CC1)c1c[nH]c2ccccc12		BRU	MT-2	<10 µM
CCCCCCCCCCCCCCCCCCCCCCOCC(C)(COCCCCCCCCCCCCCCCCCCCCCC)CO[C@]1(C(=O)O)C[C@H](OS(=O)(=O)O)[C@@H](NC(C)=O)[C@H]([C@H](OS(=O)(=O)O)[C@@H](COS(=O)(=O)O)OS(=O)(=O)O)O1		MN	H9	2 µg/mL
CCN(CC)C(=O)OCC1CN(C(C#N)(c2ccccc2)c2ccccc2)CCN1C(=O)c1cc(OC)c(OC)c(OC)c1		BaL	MDM	>10 µM
CC(C)CCC[C@@H](C)[C@H]1CC[C@H]2[C@@H]3CC=C4C[C@@H](O)CC[C@]4(C)[C@H]3CC[C@]12C		LAI	CEM + CEM-SS	>66 µM
Nc1ncnc2c1ncn2[C@@H]1OC[C@H](CCP(=O)(O)O)C12CC2		LAV-1	PBMC	49.2 µM
O=C(C(=O)N1CCN(C(=O)c2ccccc2)CC1)c1c[nH]c2ccc(F)cc12		BRU	MT-2	<10 µM
CN(C)CCNc1nc(-c2ccco2)cc(-c2cc3ccccc3s2)n1		LAV-1	PBMC	2.1 µM
Nc1nc(F)nc2c1ncn2[C@H]1S[C@@H](CO)C=C1F		LAI	PBMC	11.5 µM
CC(=O)Oc1ccc2[nH]cc(C(=O)C(=O)N3CCN(C(=O)c4ccccc4)CC3)c2c1		BRU	MT-2	<10 µM
O=C(c1ccc(F)cc1)c1ccc(-c2nc(-c3ccccc3O)[nH]c2-c2ccc(F)cc2)cc1		89BZ167	PBMC	>100 µM
CC(C)C1=C2C3CCC4[C@@]5(C)CC[C@H](OC(=O)CC(C)(C)C(=O)O)C(C)(C)C5CC[C@@]4(C)[C@]3(C)CC[C@@]2(NC(=O)NCC2CCN(C)CC2)CC1=O	30% human serum	IIIB	MT-2	0.2–0.999 µM
CC(=O)OC[C@H]1O[C@@H]2Oc3c(c(=O)n(C)c(=O)n3C)S[C@@H]2[C@@H](OC(C)=O)[C@H]1OC(C)=O		LAI	PBMC	13.6 µM
CCCCCCCCCCCCCCNC(=O)[C@H](CS[C@@H]1O[C@H](CO)[C@H](O)[C@H](O)[C@H]1O)NC(=O)CCCCCCCCCCCCC		LAI	CEM + CEM-SS	>25 µM
O=c1ccn2cnc3c(ncn3[C@@H]3O[C@H](CO)[C@@H](O)[C@H]3O)c2n1		LAV-1	MT-2	>1500 µM
Cc1ccc(C(=O)N2CCN(C(=O)C(=O)c3c[nH]c4ccccc34)CC2)cc1F		BRU	MT-2	>10 µM
CC(C)C1=C2C3CCC4[C@@]5(C)CC[C@H](OC(=O)CC(C)(C)C(=O)O)C(C)(C)C5CC[C@@]4(C)[C@]3(C)CC[C@@]2(NC(=O)Cn2ccnc2)CC1=O	30% human serum	IIIB	MT-2	<0.199 µM
CCCc1cc(=O)oc2c3c(c4c(c12)OC(C)(C)CC4)O[C@@H](C)[C@H](C)[C@@H]3O		IIIB	U-937	0.8 µM
Cn1c2c(c(=O)n(C)c1=O)S[C@@H]1[C@H](O2)O[C@H](COc2ccccc2)[C@@H](OCc2ccccc2)[C@@H]1OCc1ccccc1		LAI	PBMC	>100 µM
COC(CC(C)C(O)/C=C/C=C/CNC(=O)C(C)(C)C(O)\C(C)=C/C=C\C=C\Cc1cnc(C)o1)C1(O)C(C)C(=O)N(C)C12C(=O)OC2C		IIIB	H9	5 µg/mL
COc1ncnc2c1ncn2C(C)CO		LAV-1	MT-4	>100 µM
CC(C)C1=C2[C@H]3CC[C@@H]4[C@@]5(C)CC[C@H](OC(=O)CC(C)(C)C(=O)O)C(C)(C)[C@@H]5CC[C@@]4(C)[C@]3(C)CC[C@@]2(C(=O)NC2CCN(C(=O)OC(C)(C)C)CC2)CC1=O	30% human serum	IIIB	MT-2	<0.199 µM
Nc1c(-c2nccc(=O)[nH]2)ncn1[C@@H]1O[C@H](CO)[C@@H](O)[C@H]1O		LAV-1	MT-4	>1500 µM
CC(C)C1=C2C3CCC4[C@@]5(C)CC[C@H](OC(=O)CC(C)(C)C(=O)O)C(C)(C)C5CC[C@@]4(C)[C@]3(C)CC[C@@]2(NC(=O)OC2CCC2)CC1=O	30% human serum	IIIB	MT-2	<0.199 µM
CCCCCCCCCCCCCCNC(=O)[C@H](CS[C@@H]1O[C@H](CO)[C@H](O)[C@H](O)[C@H]1NC(C)=O)NC(=O)CCCCCCCCCCC		LAI	CEM + CEM-SS	>18 µM
CN1C=CCC(C(=O)OC[C@H]2O[C@@H](n3ccc(=O)[nH]c3=O)C[C@@H]2N=[N+]=[N-])=C1		LAV	PBMC	1 µM
CN(C)CCNc1nc(-c2ccoc2)cc(-c2cc3ccccc3s2)n1		LAV-1	PBMC	1.3 µM
CC(CO)n1cnc2c(Cl)nc(N)nc21		LAV-1	MT-2	>100 µM
COc1ccc2c(C(=O)C(=O)N3CCN(C(=O)c4ccccc4)CC3)c[nH]c2c1		BRU	MT-2	<10 µM
Cc1ccc(NC(=O)CN2CCN(Cc3nc(-c4ccc(F)cc4)no3)CC2)cc1		92UG024	PBMC	8.5 µM
Nc1ncc2ncn(CCO)c2n1		LAV-1	MT-2	>100 µM
Nc1ccn([C@@H]2C=C[C@H](CO)O2)c(=O)n1		xxBRU	PBMC	0.17 µM
CC(C)C1=C2C3CCC4[C@@]5(C)CC[C@H](OC(=O)CC(C)(C)C(=O)O)C(C)(C)C5CC[C@@]4(C)[C@]3(C)CC[C@@]2(NC(=O)NCc2ncccn2)CC1=O	30% human serum	IIIB	MT-2	<0.199 µM
CN(CCCN)CCCNc1nc(-c2cccs2)cc(-c2cccs2)n1		LAV-1	PBMC	67.7 µM
Nc1nc(Cl)c2ncn(CCO)c2n1		LAV-1	MT-2	>100 µM
CCN(CC)C(=O)OCC1CN(C(=S)c2cc(OC)c(OC)c(OC)c2)CCN1C(=S)c1cc(OC)c(OC)c(OC)c1		BaL	MDM	<10 µM
CC(C)C1=C2C3CCC4[C@@]5(C)CC[C@H](OC(=O)CC(C)(C)C(=O)O)C(C)(C)C5CC[C@@]4(C)[C@]3(C)CC[C@@]2(NC(=O)NCc2ccncn2)CC1=O	30% human serum	IIIB	MT-2	<0.199 µM
CCN(CC)C(=O)OCC1CN(Cc2ccccc2)CCN1C(=O)c1cc(OC)c(OC)c(OC)c1		BaL	MDM	13 µM
CC(C)(C)NC(=O)[C@@H]1CCCN1C(=O)[C@@H](O)[C@H](Cc1ccccc1)NC(=O)[C@H](CC(N)=O)NC(=O)OCc1ccccc1		C-3	MOLT-4	~1 µM
CC(C)[C@H](NC(=O)[C@H](Cc1ccccc1)C[C@H](O)[C@H](Cc1ccccc1)NC(=O)OC(C)(C)C)C(=O)N[C@@H](Cc1ccccc1)C(=O)N1CCOCC1		MN	MT-2	0.0069 µM
Cn1c2c(c(=O)n(C)c1=O)S[C@H]1[C@@H](O2)O[C@H](CO)[C@@H](O)[C@@H]1O		LAI	PBMC	>100 µM
CC(C)C1=C2[C@H]3CC[C@@H]4[C@@]5(C)CC[C@H](OC(=O)CC(C)(C)C(=O)O)C(C)(C)[C@@H]5CC[C@@]4(C)[C@]3(C)CC[C@@]2(C(=O)Nc2cccnc2)CC1=O	30% human serum	IIIB	MT-2	<0.199 µM
CC(=O)OC1C(OC(C)=O)[C@H](n2cnc3c2ncn2c(CCl)cc(=O)nc32)O[C@@H]1OC(C)=O		LAV-1	MT-4	>200 µM
CC(C)C1=C2[C@H]3CC[C@@H]4[C@@]5(C)CC[C@H](OC(=O)CC(C)(C)C(=O)O)C(C)(C)[C@@H]5CC[C@@]4(C)[C@]3(C)CC[C@@]2(C(=O)N2CCN(C(=O)OC(C)(C)C)CC2)CC1=O	30% human serum	IIIB	MT-2	<0.199 µM
Nc1ncnc2c1ncn2COCCOP(=O)([O-])O[C@@H]1C[C@@H](COP(=O)([O-])O[C@@H]2C[C@@H](COP(=O)([O-])O[C@@H]3C[C@@H](CO)O[C@H]3n3cnc4c(N)[n+](Cc5ccccc5)cnc43)O[C@H]2n2cnc3c(N)ncnc32)O[C@H]1n1cnc2c(N)ncnc21			SupT1 + Sup-T1	<100 µM
Nc1ncnc2c1ncn2[C@@H]1OC[C@H](/C=C/P(=O)(O)O)C12CC2		LAV-1	PBMC	62.8 µM
Clc1ccc(C2=CC(c3ccccc3)N(c3ccccc3Cl)N2)cc1		89BZ167	PBMC	>100 µM
Nc1ncnc2c1ncn2COCCOP(=O)([O-])O[C@@H]1[C@H](O)[C@@H](COP(=O)([O-])O[C@@H]2[C@H](O)[C@@H](COP(=O)([O-])O[C@@H]3[C@H](O)[C@@H](CO)O[C@H]3n3cnc4c(N)ncnc43)O[C@H]2n2cnc3c(N)ncnc32)O[C@H]1n1cnc2c(N)ncnc21			SupT1 + Sup-T1	<300 µM
CCN(CC)C(=O)OCC1CN(C(=O)c2cc(OC)c(O)c(OC)c2)CCN1C(=O)c1cc(OC)c(OC)c(OC)c1		BaL	MDM	<100 µM
Cc1ccc(C2=CC(c3ccccc3)=C(c3ccccc3)C2)cc1		89BZ167	PBMC	>100 µM
O=c1ccn(C2C[C@H](CO)[C@@H](CO)C2)c(=O)[nH]1		IIIB	H9	>10 µg/mL